Compound potency records, mixed from different reports. Data source: NIAID ChemDB in PubChem.

All rows: tests on isolated targets; organism: HIV-1; target: Reverse transcriptase

An empty or dashed field is not shown.

smiles | strain or isolate | changes | read by | read-out | result
CC(C)(C)c1ccc(-n2nnnc2SCC(=O)Nc2ccc(NC(=O)NCc3ccccc3)cc2Cl)c(Cl)c1 | - | RT-K103 Y181C | PicoGreen / fluorescence | IC50 | <1 µM
CCN1c2ncc(CCOc3ccc(CC(=O)O)c4ccccc34)cc2C(=O)Nc2c(C)ccnc21 | WT | - | nucleotide incorporation / radiometric | IC50 | <0.1 µM
COC(=O)C(C)(C)C#Cc1ccc(NC(=O)CSc2nnnn2-c2cc(C(F)(F)F)ccc2Cl)c(Cl)c1 | WT | - | PicoGreen / fluorescence | IC50 | <1 µM
CCN1c2ncc(CCOc3ccc(-n4cc(C(=O)O)nn4)cc3C)cc2C(=O)N(C)c2cccnc21 | IIIB | RT-K103N Y181C | nucleotide incorporation / radiometric | fold resistance | >1
Cc1nnc2c3ccccc3c(N3CCc4c(F)cccc4C3)nn12 | KER2008 | - | RT activity / fluorescence | IC90 | 8.5 µM
CCN1c2ncc(CCOc3ccc(-c4ccc(Cl)c(C(=O)O)c4)cc3C)cc2C(=O)N(C)c2cccnc21 | IIIB | RT-K103N Y181C | nucleotide incorporation / radiometric | IC50 | 0.05–0.1 µM
COC(=O)c1ccc2c(c1)CN(c1nn3c(C)nnc3c3ccccc13)CC2 | IIIB | - | RT activity / fluorescence | IC90 | 8.03 µM
CCN1c2ncc(CCOc3ccc(-c4ccc(C(=O)O)o4)cc3C)cc2C(=O)N(C)c2cccnc21 | IIIB | - | nucleotide incorporation / radiometric | IC50 | <0.05 µM
CCN1c2ncc(CCOc3ccc(CC(=O)NN)c4ccccc34)cc2C(=O)N(C)c2ccc(Cl)nc21 | - | RT-K103N Y181C | nucleotide incorporation / radiometric | fold resistance | 1
CC(C)(C)c1ccc(-n2nnnc2SCC(=O)Nc2ccc(OCC(=O)NCc3ccc(O)c(O)c3)cc2Cl)c(Cl)c1 | WT | - | PicoGreen / fluorescence | IC50 | <1 µM
CS(=O)(=O)Nc1ccc2c(c1)CN(c1nn3c(C4CC4)nnc3c3ccccc13)CC2 | 98US_MSC5016 | - | RT activity / fluorescence | IC90 | 2.08 µM
CCN1c2ncc(CCOc3ccc(NS(C)(=O)=O)c4ccccc34)cc2C(=O)N(C)c2ccc(F)nc21 | WT | - | nucleotide incorporation / radiometric | IC50 | <0.1 µM
Cc1nnc2c3ccccc3c(N3CCc4ccc(C(=O)O)cc4C3)nn12 | KER2008 | - | RT activity / fluorescence | IC90 | 28.2 µM
CCN1c2ncc(CCOc3ccc(-c4ccc(C(=O)O)c(Cl)c4)cc3C)cc2C(=O)N(C)c2cccnc21 | IIIB | - | nucleotide incorporation / radiometric | IC50 | <0.05 µM
Cc1c(N2CCc3ccccc3C2)nn2c(C)nnc2c1C | IIIB | - | RT activity / fluorescence | IC90 | 94.3 µM
CC(C)(O)C#Cc1ccc(NC(=O)CSc2nnnn2-c2c(F)ccc(C(F)(F)F)c2Cl)c(Cl)c1 | WT | - | PicoGreen / fluorescence | IC50 | <1 µM
Cc1cc(-c2ccc(CC(=O)O)cc2)ccc1OCCc1cnc2c(c1)C(=O)N(C)c1cccnc1N2 | IIIB | RT-K103N Y181C | nucleotide incorporation / radiometric | fold resistance | >2
CC(C)(C)c1ccc(-n2nnnc2SCC(=O)Nc2ccc(NC(=O)Cc3cccc([N+](=O)[O-])c3)cc2Cl)c(Cl)c1 | - | RT-K103 Y181C | PicoGreen / fluorescence | IC50 | <1 µM
Cc1nnc2c3ccccc3c(N3Cc4ccccc4C(C)(C)C3)nn12 | KER2008 | - | RT activity / fluorescence | IC90 | 57.4 µM
O=C(O)Cc1ccc(-c2ccc(NC(=O)CSc3nnnn3-c3ccc4ccccc4c3Cl)c(Cl)c2)cc1 | - | RT-K103 Y181C | PicoGreen / fluorescence | IC50 | <1 µM
CCN1c2ncc(CCOc3ccc(/C=C(\C)C(=O)O)c4ccccc34)cc2C(=O)N(C)c2cccnc21 | - | RT-Y188L | nucleotide incorporation / radiometric | IC50 | >1 µM
CC(C)(NC(=O)c1ccc(NC(=O)CSc2nnnn2-c2ccc(C3CC3)cc2Cl)c(Cl)c1)C(=O)O | WT | - | PicoGreen / fluorescence | IC50 | <1 µM
CCN1c2ncc(CCOc3ccc(-c4ccc(C(C)C(=O)O)cc4)cc3C)cc2C(=O)N(C)c2cccnc21 | IIIB | - | nucleotide incorporation / radiometric | IC50 | <0.05 µM
CC(C)(C(=O)O)c1ccc(-c2ccc(NC(=O)CSc3nnnn3-c3ccc(C4CC4)cc3Cl)c(Cl)c2)cc1 | WT | - | PicoGreen / fluorescence | IC50 | <1 µM
CCN1c2ncc(CCOc3ccc(-n4nc(C(=O)O)cc4C)cc3C)cc2C(=O)N(C)c2cccnc21 | IIIB | RT-K103N Y181C | nucleotide incorporation / radiometric | fold resistance | >2
CCN1c2ncc(CCOc3ccc(CC(C)C(=O)O)c4ccccc34)cc2C(=O)N(C)c2ccc(F)nc21 | WT | - | nucleotide incorporation / radiometric | IC50 | <0.1 µM
CC(C)(C#Cc1ccc(NC(=O)CSc2nnnn2-c2cc(C(F)(F)F)cc(C3CC3)c2Cl)c(Cl)c1F)NC(=O)CN1CCNCC1 | WT | - | PicoGreen / fluorescence | IC50 | <1 µM
CCN1c2ncc(CCOc3ccc(C(=O)Nc4ccccc4C(=O)O)cc3C)cc2C(=O)N(C)c2cccnc21 | IIIB | - | nucleotide incorporation / radiometric | IC50 | <0.05 µM

4 of the rows above, restated:

smiles | strain or isolate | changes | read by | read-out | result
CCN1c2ncc(CCOc3ccc(C(=O)Nc4ccccc4C(=O)O)cc3C)cc2C(=O)N(C)c2cccnc21 | IIIB | - | nucleotide incorporation / radiometric | IC50 | <0.05 µM
CCN1c2ncc(CCOc3ccc(-n4cc(C(=O)O)nn4)cc3C)cc2C(=O)N(C)c2cccnc21 | IIIB | RT-K103N Y181C | nucleotide incorporation / radiometric | fold resistance | >1
COC(=O)C(C)(C)C#Cc1ccc(NC(=O)CSc2nnnn2-c2cc(C(F)(F)F)ccc2Cl)c(Cl)c1 | WT | - | PicoGreen / fluorescence | IC50 | <1 µM
CCN1c2ncc(CCOc3ccc(-c4ccc(C(C)C(=O)O)cc4)cc3C)cc2C(=O)N(C)c2cccnc21 | IIIB | - | nucleotide incorporation / radiometric | IC50 | <0.05 µM

Fold resistance has wild type as its base. ICn is the concentration giving n% inhibition. Lines come from different laboratories, so protocols vary. Two numbers with a dash give a range or band.